Laboratory results: the supplement of paper PMC9931576
Human monoclonal antibodies against the spike receptor-binding domain (heavy:light variable regions). IC50 against pseudoviruses bearing the spike of naturally observed variants; lower = stronger; >10 µg/ml means not reached at the top dose. No active / inactive call. The stated detection limit is 0.0005 µg/ml; values near or below 0.001 µg/ml lie at the floor of the assay.

B1: BD55-6312 (protein)
chain 1: QVQLVQSGSELKKPGASVKVSCKASGYTFTSYTMNWVRQAPGQGLEWMGWINTNTGNPMYAQGFTGGRFVFSLDTSVSTAYLQISSLKAEDTAVYYCARLNGDSSNWNTWPIDYWGQGALVTVSS
chain 2: SYVLTQPPSVSVAPGQTARITCAGDSIGSKNVHWYQQKPGQAPVLVISYDSDRPSGIPERFSGSNSGNTATLTLSRVEAGDEADYYCQVWDSTTGHPGYVFGTGTKVTVL
B2: BD55-6308 (protein)
chain 1: QVQLVQSGAEMKKPGASVKVSCKASGFTFTNYRFSWVRQAPGQGLEWMGWISAYNGDTHYAQTLQGRVTMITDTSTNTAYMELRSLRSDDTAVYYCARGGVVGGYSGYDLLDDISFDSWGQGTLVTVSS
chain 2: SYELTQPPSVSVSPGQTARITCSGDVLPNQYVYWYQQRPGQAPVLMIFKDTERPSGIPERFSGSRSGTSVTLTITGVQAEDEADYYCQSAVSSGAFFSYVFGTGTKVTVL
B3: BD55-6306 (protein)
chain 1: QVQLVQSGAEVKKPGSSVKVSCKASGGTFSSYTISWVRQAPGQGLEWMGRIIPIVARANYAQKFQGRVTITADKSMSTVYMEMRSLRSEDTAVYYCATEGLRGYSGYDFVINWFDPWGQGTLVTVSS
chain 2: QSVLTQPPSVSGAPGQRVTISCTGSSSNIGAGYEVHWYQQFPGTAPKLLIYDDNNRPSGVPDRFSGSKSGTSASLAITGLQAEDEADYYCQSFDSSLSGSALFGGGTKLTVL
B4: BD55-6287 (protein)
chain 1: QVLLVESGGGVVQTGRSLRLSCAASGFTFSTSAIHWVRQAPGKGLEWVAVISYNGNKKYYADSVKGRFTISRDNSEDTVSLQMNSLGPEDTAVYYCARDSGWYHYFDHWGQGTLVTVSS
chain 2: QSVLTQPPSVSGAPGQRVTISCTGSTSNIGAGYDVYWYQQLPGAAPKVLIYLNSNRPSGVPDRFSGSKSGPSASLAITGLQVEDEADYYCQSYDSSLGVLVFGGGTKLTVL
B5: BD55-1205 (protein)
chain 1: EVQLVESGGGLVQPGGSLRLSCAVSGFTVSRNYMTWARQAPGKGPEWVSVIYPGGSTFYADSVKGRFTISRDSSKNILYLQMNSLRVDDTAVYYCARDLTIRGEASWGQGTLVTVSS
chain 2: EIVMTQSPATLAVSPGERATLSCRASESFNSNLAWYQQKPGQAPRLLIYGASTRASDVPARFSGSGSGTEFTLTISSVQSEDFAVYYCQQYGDWPLWTFGQGTKVEI
B6: BD55-6304 (protein)
chain 1: EVQLVQSGAELKKPGESLKISCKASGYTFSYSWIAWVRQKPGKGLEWMGVLYPDDSDTRYSPSFQGQVTISADRSTDTAYLEWSSLKASDTAIYYCARLWSGYMYGIIENWGQGTLVTVSS
chain 2: DIVMTQSPDSLAVSLGERATINCKSSQSVLYSSNNKNYLAWYQQKPGQPPKLLIFWASTRESGVPDRFSGSGSGTDFTLTISSLQAEDVAVYYCQQYSNSLPTFGQGTKVEIK
B7: BD55-6276 (protein)
chain 1: QVLLVQSGAEVEKPGASVKVSCKASGYTFTNYYIHWVRQAPGQGLEWMGMINPSGGSTTFAQKFQGRVTMTSDTSTYTVYMEVSGLISEDTAVYYCARDGGSAASHYYYYMDVWGKGTTVTVSS
chain 2: DIQMTQSPSSLSASVGDRVTITCRASQSISNFLNWYQQKPGEAPKVLIYAASNLQSGVPSRFSGSGSGTDFTLTISSLQPEDFATYYCQQGYTTPTWTFGQGTKVEIK
B8: BD55-6296 (protein)
chain 1: QVQLVQSGAEVKKPGASVKVSCKASGYTFTNYYLHWVRLAPRQGLEWMGMINPSGGESTYAQKFQGRATMTRDTSTSTVYMELSSLRSEDTAVYYCARDGGAAASHYYYYMDVWGIGTTVTVSS
chain 2: DIQMTQSPSSLSASVGDRVTITCRASQSISNFLNWYQLTPGKAPKVLIYAASNLQSGVPSRFSGSGSGTDFTLTISSLQPEDFATYYCQQSYSTPTWTFGQGTKVEIK
B9: BD55-6292 (protein)
chain 1: EVQLVESGGGLVQPGGSLRLSCAASGFTFSNYAMHWVRQAPGKGLEYVSAITSDGGGKFYADAVKGRFTISRDNSRNTLFLQMGGLITEDTAVYYCAREGSGYRMYFDYWGQGALVTVAS
chain 2: DIQMTQSPSSLSASVGDRVTITCRASQSISTNLNWYQQKPGKAPKLLIYIASSLQSGVPSRFSGSGSGTDFTLTISSLQPEDFATYYCQQTYTTPSYTFGQGTKLEIK
B10: BD55-6317 (protein)
chain 1: QVQLQETGPGLVKSSGTLSLTCSVSGGSIASRSYLWGWIRQPPGKGLEWIGSFQYTGSRDYNPSLRSRATISADTSKNQLSLKVTSVTAADTAVYYCARQGGGDYYFENWGQGTLVTVSS
chain 2: DIQMTQSPSTLSASVGDRVTITCRASQSVNWWLAWYQQKPGKAPTLLIYKASILESGVPSRFSGSGHGTEFSLTVSSLQPDDFATYYCQQYNDFPYTFGQGTRLEIK
B11: BD55-6284 (protein)
chain 1: EVQLVESGGGLVQPGRSLRLSCAASGFTFDDYAMHWVRQAPGKGLEWVSGISWNSASVGYADSVRGRFTISRDNAKNSLYLQMNSLRAEDTALYYCASMLTFGGDSAFDYWGQGTLVTVSS
chain 2: IQLTQSPSSLSASVGDRVTIACRASQGISTYLAWYQQKPGKAPKLLIYAASILQSGVPSRFSGSGSGTDFTLTISSLQPEDFATYYCQQLNSYPYTFGQGTKLEIK
B12: BD55-6293 (protein)
chain 1: QLQLQESGPGLVKPSETLSLTCTVSGGSISSSNYYWGWIRQPPGKGLEWIGNIYYSGITYYYPSLKSRVTISVDTSKNQFSLKLSSVTAADTAIYHCARLVRRWQDFVASGAFDIWGQGTMVTVSS
chain 2: QSALTQPASVSGSLGQSITISCTGTSSDVGSYNLVSWYQQHPGKAPKIIIYEVTKRPPGVSNRFSGSKSGNTASLTISGLQAEDEADYYCCSHAGSSMVFGGGTKLTVL

What follows are binders tested against SARS-CoV-2 Omicron BA.1 spike pseudovirus (assay: pseudovirus neutralization IC50; higher = weaker neutralization).
Method: (§1)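 Single-round VSV luciferase pseudovirus mixed with antibody dilutions for 1 h and put on Huh-7 cells for about a day; IC50 from the dose curve.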

B1 and B2 cannot be ordered by “pseudovirus neutralization IC50” value: over 10 µg/mL for the first, over 10 µg/mL for the second.

B3 and B4 cannot be ordered by “pseudovirus neutralization IC50” value: over 10 µg/mL for the first, over 10 µg/mL for the second.

Compared with B5, B6 is 240-fold higher in “pseudovirus neutralization IC50” value: 0.0052 µg/mL for the first, 1.24 µg/mL for the second.

B7 and B8 cannot be ordered by “pseudovirus neutralization IC50” value: over 10 µg/mL for the first, over 10 µg/mL for the second.

B9 and B10 cannot be ordered by “pseudovirus neutralization IC50” value: over 10 µg/mL for the first, over 10 µg/mL for the second.

B11 and B12 cannot be ordered by “pseudovirus neutralization IC50” value: over 10 µg/mL for the first, over 10 µg/mL for the second.

These binders were tested against SARS-CoV-2 Omicron BA.2 spike pseudovirus in the same assay as above.
Method: as §1

B1 and B2 cannot be ordered by “pseudovirus neutralization IC50” value: over 10 µg/mL for the first, over 10 µg/mL for the second.

B3 and B4 cannot be ordered by “pseudovirus neutralization IC50” value: over 10 µg/mL for the first, over 10 µg/mL for the second.

Compared with B5, B6 is 160-fold higher in “pseudovirus neutralization IC50” value: 0.00551 µg/mL for the first, 0.89 µg/mL for the second.

B7 and B8 cannot be ordered by “pseudovirus neutralization IC50” value: over 10 µg/mL for the first, over 10 µg/mL for the second.

B9 and B10 cannot be ordered by “pseudovirus neutralization IC50” value: over 10 µg/mL for the first, over 10 µg/mL for the second.

B11 and B12 cannot be ordered by “pseudovirus neutralization IC50” value: over 10 µg/mL for the first, over 10 µg/mL for the second.

Each binder was assayed against SARS-CoV-2 Omicron BA.2.75 spike pseudovirus in the same assay as above.
Method: as §1

B1 and B2 cannot be ordered by “pseudovirus neutralization IC50” value: over 10 µg/mL for the first, over 10 µg/mL for the second.

B3 and B4 cannot be ordered by “pseudovirus neutralization IC50” value: over 10 µg/mL for the first, over 10 µg/mL for the second.

Compared with B5, B6 is 280-fold higher in “pseudovirus neutralization IC50” value: 0.00413 µg/mL for the first, 1.17 µg/mL for the second.

B7 and B8 cannot be ordered by “pseudovirus neutralization IC50” value: over 10 µg/mL for the first, over 10 µg/mL for the second.

B9 and B10 cannot be ordered by “pseudovirus neutralization IC50” value: over 10 µg/mL for the first, over 10 µg/mL for the second.

B11 and B12 cannot be ordered by “pseudovirus neutralization IC50” value: over 10 µg/mL for the first, over 10 µg/mL for the second.

These binders were tested against SARS-CoV-2 Omicron BA.5 spike pseudovirus in the same assay as above.
Method: as §1

B1 and B2 cannot be ordered by “pseudovirus neutralization IC50” value: over 10 µg/mL for the first, over 10 µg/mL for the second.

B3 and B4 cannot be ordered by “pseudovirus neutralization IC50” value: over 10 µg/mL for the first, over 10 µg/mL for the second.

Compared with B5, B6 is 250-fold higher in “pseudovirus neutralization IC50” value: 0.00348 µg/mL for the first, 0.875 µg/mL for the second.

B7 and B8 cannot be ordered by “pseudovirus neutralization IC50” value: over 10 µg/mL for the first, over 10 µg/mL for the second.

B9 and B10 cannot be ordered by “pseudovirus neutralization IC50” value: over 10 µg/mL for the first, over 10 µg/mL for the second.

B11 and B12 cannot be ordered by “pseudovirus neutralization IC50” value: over 10 µg/mL for the first, over 10 µg/mL for the second.

What follows are binders tested against SARS-CoV-2 Omicron BQ.1.1 spike pseudovirus in the same assay as above.
Method: as §1

B1 and B2 cannot be ordered by “pseudovirus neutralization IC50” value: over 10 µg/mL for the first, over 10 µg/mL for the second.

B3 and B4 cannot be ordered by “pseudovirus neutralization IC50” value: over 10 µg/mL for the first, over 10 µg/mL for the second.

Going from B5 to B6, the “pseudovirus neutralization IC50” value rises from 0.0139 µg/mL to over 10 µg/mL.

B7 and B8 cannot be ordered by “pseudovirus neutralization IC50” value: over 10 µg/mL for the first, over 10 µg/mL for the second.

B9 and B10 cannot be ordered by “pseudovirus neutralization IC50” value: over 10 µg/mL for the first, over 10 µg/mL for the second.

B11 and B12 cannot be ordered by “pseudovirus neutralization IC50” value: over 10 µg/mL for the first, over 10 µg/mL for the second.

These binders were tested against SARS-CoV-2 Omicron XBB spike pseudovirus in the same assay as above.
Method: as §1

B1 and B2 cannot be ordered by “pseudovirus neutralization IC50” value: over 10 µg/mL for the first, over 10 µg/mL for the second.

B3 and B4 cannot be ordered by “pseudovirus neutralization IC50” value: over 10 µg/mL for the first, over 10 µg/mL for the second.

First: B5
Second: B6
The “pseudovirus neutralization IC50” value of the first is lower: 0.00635 µg/mL for the first, over 10 µg/mL for the second.

B7 and B8 cannot be ordered by “pseudovirus neutralization IC50” value: over 10 µg/mL for the first, over 10 µg/mL for the second.

B9 and B10 cannot be ordered by “pseudovirus neutralization IC50” value: over 10 µg/mL for the first, over 10 µg/mL for the second.

B11 and B12 cannot be ordered by “pseudovirus neutralization IC50” value: over 10 µg/mL for the first, over 10 µg/mL for the second.

The binders below were run against SARS-CoV-2 early D614G spike pseudovirus in the same assay as above.
Method: as §1

Going from B1 to B2, the “pseudovirus neutralization IC50” value falls from over 10 µg/mL to 0.148 µg/mL.

Going from B3 to B4, the “pseudovirus neutralization IC50” value rises from 0.158 µg/mL to over 10 µg/mL.

Going from B5 to B6, the “pseudovirus neutralization IC50” value rises from 0.00331 µg/mL to 1.19 µg/mL (360-fold).

B7 and B8 cannot be ordered by “pseudovirus neutralization IC50” value: over 10 µg/mL for the first, over 10 µg/mL for the second.

First: B9
Second: B10
The “pseudovirus neutralization IC50” value of the first is higher: over 10 µg/mL for the first, 0.431 µg/mL for the second.

B11 and B12 cannot be ordered by “pseudovirus neutralization IC50” value: over 10 µg/mL for the first, over 10 µg/mL for the second.
